Anti-infective test results gathered from many reports (values: NIAID ChemDB through PubChem).

Shared fields: tests in culture; species: Candida albicans; read-out: zone

Lines come from different laboratories, so protocols vary.

Fc1ccccc1/C=N/n1c(C23CC4CC(CC(C4)C2)C3)n[nH]c1=S ; strain or isolate: IFO 3007 ; read by: agar diffusion ; tested at: 200 µg/disc ; value: <10 mm
CCC(C)CCCCCCCCCCC(=O)N[C@H]1C[C@@H](O)[C@@H](O)NC(=O)C2[C@@H](O)[C@@H](C)CN2C(=O)C(CO)NC(=O)C([C@H](O)C(O)c2ccc(O)cc2)NC(=O)NC(=O)[C@@H]2C[C@@H](O)CN2C(=O)[C@H]([C@@H](C)O)NC1=O ; strain or isolate: IV ; read by: agar ; tested at: 2 mg/mL ; value: 32 mm
C[C@H]1[C@H](O)[C@@H](C)/C=C/C=C/C=C/C=C/C=C/C=C/C=C/[C@H](O[C@@H]2O[C@H](C)[C@@H](O)[C@H](N)[C@@H]2O)C[C@@H]2O[C@](O)(C[C@@H](O)C[C@@H](O)CC[C@H](O)[C@@H](O)C[C@@H](O)CC(=O)O[C@H]1C)C[C@H](O)[C@H]2C(=O)O ; strain or isolate: Ca4 ; read by: agar diffusion ; tested at: 100 µg/disc ; value: 21 mm
CC1/C(=N\O)C(=O)NCCCOc2c(O)cc(c(Br)c2Br)C/C2=N\O[C@@H]3[C@H](Br)[C@@]4(C=C[C@@]3(O)C/C(=N\O)C(=O)NC[C@@H](O)[C@H](O)[C@H](O)CNC2=O)Oc2cc1cc(Br)c2O4 ; read by: agar diffusion ; tested at: 10 µg/disc ; value: 8 mm
CCC(C)CCCCCCCCCCC(=O)N[C@H]1C[C@@H](O)[C@@H]([n+]2cc[nH]c2)NC(=O)C2[C@@H](O)[C@@H](C)CN2C(=O)C(CO)NC(=O)C([C@H](O)C(O)c2ccc(O)cc2)NC(=O)NC(=O)[C@@H]2C[C@@H](O)CN2C(=O)[C@H]([C@@H](C)O)NC1=O ; strain or isolate: IV ; read by: agar ; tested at: 1 mg/mL ; value: 22 mm
O=C1C(Cl)C(c2ccccc2Cl)N1Nc1nc2ccccc2n2nnnc12 ; strain or isolate: ATCC 2091 ; read by: agar diffusion ; tested at: 100 µg/mL ; value: 11 mm
CCOC(=O)C1CCN(Cn2nc(C34CC5CC(CC(C5)C3)C4)n(/N=C/c3ccc(Cl)cc3Cl)c2=S)CC1 ; strain or isolate: IFO 3007 ; read by: agar diffusion ; tested at: 200 µg/disc ; value: <10 mm
Cc1cc(O)c(C(C)C)cc1Cl ; strain or isolate: MTCC ; read by: agar diffusion ; tested at: 100 µg/mL ; value: 20 mm
CC(=O)N1CCN(c2ccc(OC[C@H]3CO[C@](Cn4ccnc4)(c4ccc(Cl)cc4Cl)O3)cc2)CC1 ; strain or isolate: C5 ; read by: agar diffusion / agar ; tested at: 20 mg/mL ; value: 12 mm
Cn1c(=O)c(-c2[nH][nH]c(=O)c2C=Nc2cccnc2)c(O)c2ccccc21 ; strain or isolate: ATCC 10231 ; read by: agar diffusion ; tested at: 1 mg/mL ; value: 17 mm
O=C1CSC(c2ccccc2Cl)N1Nc1nc2ccccc2n2nnnc12 ; strain or isolate: ATCC 2091 ; read by: agar diffusion ; tested at: 100 µg/mL ; value: 13 mm
S=c1[nH]nc(C23CC4CC(CC(C4)C2)C3)n1/N=C/c1ccc(Cl)c(Cl)c1 ; strain or isolate: IFO 3007 ; read by: agar diffusion ; tested at: 200 µg/disc ; value: 12 mm
CC(C)C[C@@H]1NC(=O)[C@H](C(C)C)NC1=O ; strain or isolate: MTCC 277 ; read by: agar diffusion / agar ; tested at: 32 µg/mL ; value: 18 mm
CCC(C)CCCCCCCCCCC(=O)N[C@H]1C[C@@H](O)[C@@H](NCCN2CCOCC2)NC(=O)C2[C@@H](O)[C@@H](C)CN2C(=O)C(CO)NC(=O)C([C@H](O)C(NCCN2CCOCC2)c2ccc(O)cc2)NC(=O)NC(=O)[C@@H]2C[C@@H](O)CN2C(=O)[C@H]([C@@H](C)O)NC1=O ; strain or isolate: IV ; read by: agar ; tested at: 2 mg/mL ; value: 17 mm
C/C=C/C1=CC2=CC(=O)[C@](C)(OC(=O)c3c(OC)cc(O)c(O)c3C)C(=O)C2=CO1 ; strain or isolate: ATCC 64548 ; read by: agar diffusion ; tested at: 1 µg/disc ; value: 0 mm
CCC(C)CCCCCCCCCCC(=O)N[C@H]1C[C@@H](O)[C@@H](S(=O)(=O)CC(=O)OC)NC(=O)C2[C@@H](O)[C@@H](C)CN2C(=O)C(CO)NC(=O)C([C@H](O)C(O)c2ccc(O)cc2)NC(=O)NC(=O)[C@@H]2C[C@@H](O)CN2C(=O)[C@H]([C@@H](C)O)NC1=O ; strain or isolate: IV ; read by: agar ; tested at: 5 mg/mL ; value: 24 mm
CCOC(=O)C1CCN(Cn2nc(C34CC5CC(CC(C5)C3)C4)n(/N=C/c3ccc(O)cc3)c2=S)CC1 ; strain or isolate: IFO 3007 ; read by: agar diffusion ; tested at: 200 µg/disc ; value: 19 mm
Cc1ccc(N=Cc2c(-c3c(O)c4ccccc4n(C)c3=O)[nH][nH]c2=O)cc1 ; strain or isolate: ATCC 10231 ; read by: agar diffusion ; tested at: 1 mg/mL ; value: 23 mm
C[C@H]1[C@H](O)[C@@H](C)/C=C/C=C/C=C/C=C/C=C/C=C/C=C/[C@H](O[C@@H]2O[C@H](C)[C@@H](O)[C@H](N)[C@@H]2O)C[C@@H]2O[C@](O)(C[C@@H](O)C[C@@H](O)CC[C@H](O)[C@@H](O)C[C@@H](O)CC(=O)O[C@H]1C)C[C@H](O)[C@H]2C(=O)O ; strain or isolate: MTCC 277 ; read by: agar diffusion / agar ; tested at: 16 µg/mL ; value: 24 mm
Cn1c(=O)c(-c2[nH][nH]c(=O)c2N=Nc2ccccc2)c(O)c2ccccc21 ; strain or isolate: ATCC 10231 ; read by: agar diffusion ; tested at: 1 mg/mL ; value: 10 mm
CCOC(=O)C1CCN(Cn2nc(C34CC5CC(CC(C5)C3)C4)n(/N=C/c3c(F)cccc3F)c2=S)CC1 ; strain or isolate: IFO 3007 ; read by: agar diffusion ; tested at: 200 µg/disc ; value: 14 mm
O=C1C(Cl)C(c2ccccc2)N1Nc1nc2ccccc2n2nnnc12 ; strain or isolate: ATCC 2091 ; read by: agar diffusion ; tested at: 50 µg/mL ; value: 7 mm
CCC(C)CCCCCCCCCCC(=O)N[C@H]1C[C@@H](O)[C@@H](N=[N+]=[N-])NC(=O)C2[C@@H](O)[C@@H](C)CN2C(=O)C(CO)NC(=O)C([C@H](O)C(N=[N+]=[N-])c2ccc(O)cc2)NC(=O)NC(=O)[C@@H]2C[C@@H](O)CN2C(=O)[C@H]([C@@H](C)O)NC1=O ; strain or isolate: IV ; read by: agar ; tested at: 2 mg/mL ; value: 21 mm
C[C@H]1[C@H](O)[C@@H](C)/C=C/C=C/C=C/C=C/C=C/C=C/C=C/[C@H](O[C@@H]2O[C@H](C)[C@@H](O)[C@H](N)[C@@H]2O)C[C@@H]2O[C@](O)(C[C@@H](O)C[C@@H](O)CC[C@H](O)[C@@H](O)C[C@@H](O)CC(=O)O[C@H]1C)C[C@H](O)[C@H]2C(=O)O ; strain or isolate: ATCC 10231 ; read by: agar diffusion ; tested at: 1 mg/mL ; value: 20 mm
C=CC(C)(C)c1cc(C2CC(=O)c3c(cc(O)c(CC=C(C)C)c3O)O2)c(O)cc1O ; strain or isolate: hemoculture isolate ; read by: agar diffusion / agar ; tested at: 2 mg/mL ; value: 12 mm
S=c1[nH]nc(C23CC4CC(CC(C4)C2)C3)n1/N=C/c1ccc(Cl)cc1 ; strain or isolate: IFO 3007 ; read by: agar diffusion ; tested at: 200 µg/disc ; value: <10 mm
CN1C(=O)/C(=c2/[nH][nH]c(=O)/c2=C\c2ccc(N)cc2)C(=O)c2ccccc21 ; strain or isolate: ATCC 10231 ; read by: agar diffusion ; tested at: 1 mg/mL ; value: 0 mm
O=C1CSC(c2ccc(C(F)(F)F)cc2)N1Nc1nc2ccccc2n2nnnc12 ; strain or isolate: ATCC 2091 ; read by: agar diffusion ; tested at: 50 µg/mL ; value: 8 mm
CCC(C)CCCCCCCCCCC(=O)N[C@H]1C[C@@H](O)[C@@H](NCCN2CCOCC2)NC(=O)C2[C@@H](O)[C@@H](C)CN2C(=O)C(CO)NC(=O)C([C@H](O)C(O)c2ccc(O)cc2)NC(=O)NC(=O)[C@@H]2C[C@@H](O)CN2C(=O)[C@H]([C@@H](C)O)NC1=O ; strain or isolate: IV ; read by: agar ; tested at: 5 mg/mL ; value: 16 mm
COc1ccccc1/C=c1\c(=O)[nH][nH]\c1=C1/C(=O)c2ccccc2N(C)C1=O ; strain or isolate: ATCC 10231 ; read by: agar diffusion ; tested at: 1 mg/mL ; value: 13 mm

A second listing of 2 rows from above:

{"smiles": "S=c1[nH]nc(C23CC4CC(CC(C4)C2)C3)n1/N=C/c1ccc(Cl)cc1", "strain or isolate": "IFO 3007", "read by": "agar diffusion", "tested at": "200 µg/disc", "value": "<10 mm"}
{"smiles": "C[C@H]1[C@H](O)[C@@H](C)/C=C/C=C/C=C/C=C/C=C/C=C/C=C/[C@H](O[C@@H]2O[C@H](C)[C@@H](O)[C@H](N)[C@@H]2O)C[C@@H]2O[C@](O)(C[C@@H](O)C[C@@H](O)CC[C@H](O)[C@@H](O)C[C@@H](O)CC(=O)O[C@H]1C)C[C@H](O)[C@H]2C(=O)O", "strain or isolate": "ATCC 10231", "read by": "agar diffusion", "tested at": "1 mg/mL", "value": "20 mm"}

Zones are inhibition diameters on agar.